Anti-infective test results gathered from many reports (values: NIAID ChemDB through PubChem).

Shared fields: growth or infection tests; agent: Cryptococcus neoformans; read-out: MFC

Lines come from different laboratories, so protocols vary.

COC(/C=C/c1ccccc1)=C1/C(=O)C=C(C)C1=O ; strain or isolate: ATCC 90113 ; value: 6.25 µg/mL
CC(C)CC1NC(=O)CC(CCCCCCCCC(C)O)OC(=O)C(CC(C)C)NC(=O)C(CC(C)C)NC(=O)C(CC(C)C)NC(=O)C(C(C)C)NC(=O)C(CC(=O)O)NC(=O)C(CC(C)C)NC1=O ; strain or isolate: MTCC 4406 ; method: visual reading ; value: 4 µg/mL
Fc1ccc(CN(Cc2ccc(-c3ccccc3)cc2)n2ccnc2)cc1 ; value: 200 µM
CC(C)N=C(N)c1ccc2nc(-c3ccc(CCc4ccc(-c5nc6ccc(C(N)=NC(C)C)cc6[nH]5)cc4)cc3)[nH]c2c1 ; strain or isolate: 114.95 ; value: 0.39 µg/mL
Cn1nc(Cc2ccc(Cl)cc2)c2ccccc2c1=O ; strain or isolate: Clinical isolate (IM 042074) ; method: broth dilution ; value: 31.3 µg/mL
CCn1nc(-c2cc(C)on2)cc1C ; value: >200 µM
N=C(N)c1ccc2nc(-c3ccc(-c4nc5ccc(C(=N)N)cc5[nH]4)[nH]3)[nH]c2c1 ; strain or isolate: H99 ; value: 0.78 µg/mL
CCn1nc(C)c([N+](=O)[O-])c1-c1cc(C)on1 ; value: >200 µM
Clc1ccc(CN(Cc2ccc(-c3ccccc3)cc2)n2ccnc2)cc1 ; value: 200 µM
COC1CC2CCC(C)C(O)(O2)C(O)C(O)N2CCCCC2C(=O)OC(C(C)CC2CCC(O)C(OC)C2)CC(=O)C(C)/C=C(\C)C(O)C(OC)C(=O)C(C)CC(C)/C=C/C=C/C=C/1C ; strain or isolate: FRR1 ; value: >100 µg/mL
Clc1ccc(CN(Cc2ccc(-c3ccccc3)cc2)n2ccnc2)c(Cl)c1 ; value: 7.4 µM
N=C(N)c1ccc(NCCCNc2ccc(C(=N)N)cc2[N+](=O)[O-])c([N+](=O)[O-])c1 ; strain or isolate: 135.95 ; value: 6.25 µg/mL
CC(C)(C)c1ccc(CC(Cc2ccc(-c3ccccc3)cc2)n2ccnc2)cc1 ; value: 33 µM
C[C@@H](n1ncn(-c2ccc(OCC(F)(F)C(F)F)cc2)c1=O)[C@](O)(Cn1cncn1)c1ccc(F)cc1F ; strain or isolate: DUMC 123.96 ; value: >16 µg/mL
CCc1cc(C(C)(C)C)nc2c(NC(C)CCCN)cc(OC)c(Oc3cccc(C(F)(F)F)c3)c12 ; value: 10 µg/mL
CCn1nc(C)cc1-c1cc(C)on1 ; value: >200 µM
NCCNC(=O)C1=Nc2ccc(NC(=O)C3=Nc4ccc(C(=O)Nc5ccc6[nH]c(C(=O)NCCN)cc6c5)cc4C3)cc2C1 ; strain or isolate: Serotype D ; value: 8 µg/mL
COC1CC2CCC(C)C(O)(O2)C(=O)C(=O)N2CCCCC2C(=O)OC(C(C)CC2CCC(O)C(OC)C2)CC(=O)C(C)/C=C(\C)C(O)[C@@](OC)(N(O)C(=O)OCC(C)C)C(=O)C(C)CC(C)/C=C/C=C/C=C/1C ; strain or isolate: WILD TYPE ; value: >100 µg/mL
Fc1ccc(CC(Cc2ccc(-c3ccccc3)cc2)n2ccnc2)cc1 ; value: 33 µM
C[C@@H](n1cnc2cc(Cl)ccc2c1=O)[C@](O)(Cn1cncn1)c1ccc(F)cc1F ; strain or isolate: Isolate 114.95 ; value: 0.078 µg/mL
C[C@@H]1CCC2(OC1)OC1CC3C4C[C@H](OC5O[C@@H](CO)[C@H](O)[C@@H](O)[C@@H]5O)[C@H]5C[C@@H](OC6O[C@H](CO)[C@@H](O)[C@H](O)[C@H]6O)CC[C@]5(C)C4CC[C@]3(C)C1[C@@H]2C ; strain or isolate: ATCC 90113 ; value: >20 µg/mL
N=C(N)c1ccc(OCCCC(O)COc2ccc(C(=N)N)cc2)cc1 ; strain or isolate: 133.95 ; value: 1.56 µg/mL
N=C(N)c1ccc2nc(CCCCc3nc4ccc(C(=N)N)cc4[nH]3)[nH]c2c1 ; strain or isolate: H99 ; value: >100 µg/mL
COc1ccc(CN(Cc2ccc(-c3ccccc3)cc2)n2ccnc2)cc1 ; value: >200 µM
Fc1ccc(CC(Cc2ccc(-c3ccccc3)cc2)n2ccnc2)c(F)c1 ; value: 33 µM
Clc1ccc(COC(Cn2ccnc2)c2ccc(Cl)cc2Cl)c(Cl)c1 ; value: 0.9 µM
CN[C@H]1CC[C@@H](c2ccc(Cl)c(Cl)c2)c2ccccc21 ; strain or isolate: 93BC2-52 ; method: broth dilution ; value: 8 µg/mL
Cc1ccc(CN(Cc2ccc(-c3ccccc3)cc2)n2ccnc2)cc1 ; value: 200 µM
COc1c(O)c2c(=O)cc(OC)c3c4c(OC)cc(=O)c5c(O)c(OC)c6c(c(c1CC(C)=C6OC(C)=O)c23)c54 ; value: >100 µg/mL

The first 3 rows once more:

structure | strain or isolate | method | value
COC(/C=C/c1ccccc1)=C1/C(=O)C=C(C)C1=O | ATCC 90113 | - | 6.25 µg/mL
CC(C)CC1NC(=O)CC(CCCCCCCCC(C)O)OC(=O)C(CC(C)C)NC(=O)C(CC(C)C)NC(=O)C(CC(C)C)NC(=O)C(C(C)C)NC(=O)C(CC(=O)O)NC(=O)C(CC(C)C)NC1=O | MTCC 4406 | visual reading | 4 µg/mL
Fc1ccc(CN(Cc2ccc(-c3ccccc3)cc2)n2ccnc2)cc1 | - | - | 200 µM

Blank or dashed fields: not listed here.